Compound potency records, mixed from different reports. Data source: NIAID ChemDB in PubChem.

All rows: tests in culture

Rows are shuffled and stem from different studies.

CCOC(=O)c1c(C)nc(OCCCNc2ccnc3cc(Cl)ccc23)nc1-c1ccccc1 ; species: Cryptococcus neoformans ; strain or isolate: F-10 ; measure: MIC99 ; result: 4 µg/mL
O=S(=O)(O)c1cc(O)c2c(O)cc(S(=O)(=O)O)cc2c1 ; species: Rhinovirus ; cells: Human embryonic lung cells ; method: cytopathic effect ; measure: inhibition ; tested at: 5 µg/mL ; result: 10%
Nc1nc(=O)n([C@@H]2O[C@H](CO)[C@@H](O)[C@@H]2F)cc1I ; species: Varicella zoster virus ; strain or isolate: OKA ; cells: HELF ; method: plaque count ; measure: inhibition ; tested at: 0.1 µg/mL ; result: 82%
C/C=C\[C@@H]1C[C@H](C(=O)O)N[C@H]1[C@@H](NC(C)=O)[C@](C)(CCC)OC ; species: Influenza A virus ; strain or isolate: Influenza A H3N2 isolate C32C ; cells: MDCK ; method: plaque count ; measure: EC50 ; result: 0.5 µg/mL
C[C@H](NC(=O)c1c2n(c(=O)n1-c1ccc(OCC(F)(F)F)cc1)CCN(C(=O)c1ccc(Br)c(Cl)c1)C2)c1ccccc1 ; species: Hepatitis B virus ; cells: HepG2.117 ; method: PCR ; measure: EC50 ; result: 0.5–5 µM
C=CCc1ccc(OC)c(OC)c1 ; species: Candida tropicalis ; strain or isolate: 3219 ; method: turbidity ; measure: MIC90 ; result: 345 µg/mL
CCOC(=O)c1c(C)nc(NCCCNc2ccnc3cc(Cl)ccc23)nc1-c1ccccc1 ; species: Cryptococcus gattii ; strain or isolate: 547/OTTI-97-PI-10 ; measure: MIC99 ; result: 16 µg/mL
CCOC(=O)/C=C/[C@H](C[C@@H]1CCNC1=O)NC(=O)[C@@H](CC(=O)[C@@H](NC(=O)c1cc(C)on1)C(C)C)Cc1ccc(F)cc1 ; species: Rhinovirus ; strain or isolate: Isolate 18 ; cells: OHIO HELA-I ; method: cytopathic effect / visual reading ; measure: EC50 ; result: <0.01 µg/mL
O=C(NCc1ccccc1)c1c2n(c(=O)n1-c1cccc(F)c1)CCN(C(=O)c1ccc(Br)c(Cl)c1)C2 ; species: Hepatitis B virus ; cells: HepG2.117 ; method: PCR ; measure: EC50 ; result: 0.5–5 µM
CCOC(=O)c1c(C)nc(NCCCCNc2ccnc3cc(Cl)ccc23)nc1-c1ccccc1[N+](=O)[O-] ; species: Cryptococcus neoformans ; strain or isolate: WP ; measure: MIC99 ; result: 5.7 µg/mL
Nc1nc2c(ncn2COCCO)c(=O)[nH]1 ; species: Varicella zoster virus ; strain or isolate: Kawaguchi ; cells: HELF ; method: plaque count ; measure: inhibition ; tested at: 1 µg/mL ; result: 75%
C/C=C/C/C=C/CCC(=O)[C@H]1O[C@H]1C(N)=O ; species: Escherichia coli ; strain or isolate: UB1005/PBR322 ; measure: MIC ; result: 20 µg/mL
Nc1ccc2cc(S(=O)(=O)O)cc(S(=O)(=O)O)c2c1 ; species: Herpes simplex virus ; cells: Human amnion AV3 cells ; method: cytopathic effect ; measure: inhibition ; tested at: 5 µg/mL ; result: 0%
C=Cc1cn([C@@H]2O[C@H](CO)[C@@H](O)[C@@H]2O)c(=O)[nH]c1=O ; species: Varicella zoster virus ; strain or isolate: Asahikawa ; cells: HELF ; method: plaque count ; measure: inhibition ; tested at: 0.1 µg/mL ; result: 14%
Cn1cc(C(=O)NCc2ccc(Cl)cc2)c(=O)c2cc(CN3CCOCC3)ccc21 ; species: Varicella zoster virus ; strain or isolate: GA varicella isolate ; cells: HFF ; method: plaque count ; measure: inhibition ; tested at: 2.2 µM ; result: 90%
Nc1c(S(=O)(=O)O)cc2cc(S(=O)(=O)O)cc(O)c2c1O ; species: Herpes simplex virus ; cells: Human conjunctiva cells ; method: cytopathic effect ; measure: inhibition ; tested at: 50 µg/mL ; result: 30%
O=c1[nH]c(=O)n([C@@H]2O[C@H](CO)[C@@H](O)[C@@H]2O)cc1/C=C/Cl ; species: Varicella zoster virus ; strain or isolate: KANNO ; cells: HELF ; method: plaque count ; measure: inhibition ; tested at: 0.0001 µg/mL ; result: 23%
CCC(CC)O[C@@H]1C=C(C(=O)O)C[C@H](N)[C@H]1NC(C)=O ; species: Influenza A virus ; strain or isolate: H1N1 A/Beijing/262/95 ; cells: MDCK ; measure: EC50 ; result: 2.4 µM
Nc1nc2c(ncn2COC(CO)CO)c(=O)[nH]1 ; species: Human cytomegalovirus ; strain or isolate: VR5120 (ganciclovir-resistant) ; method: plaque count ; measure: EC90 ; result: 72.5 µM
Nc1ccccc1S(=O)(=O)O ; species: Adenovirus ; strain or isolate: TYPE 3 ; cells: Human embryonic lung cells ; method: cytopathic effect ; measure: inhibition ; tested at: 50 µg/mL ; result: 40%
O=C(NCc1ccc(Cl)cc1)c1c[nH]c2ccc(C#CCO)cc2c1=O ; species: Varicella zoster virus ; strain or isolate: STE ; method: plaque count ; measure: EC50 ; result: 0.1 µM
O=c1[nH]c(=O)n([C@H]2C[C@H](O)[C@@H](CO)O2)cc1I ; species: Varicella zoster virus ; strain or isolate: KANNO ; cells: HELF ; method: plaque count ; measure: inhibition ; tested at: 10 µg/mL ; result: 100%
Nc1ccc2cc([N+](=O)[O-])cc(S(=O)(=O)[O-])c2c1 ; species: Rhinovirus ; cells: Human embryonic lung cells ; method: cytopathic effect ; measure: inhibition ; tested at: 50 µg/mL ; result: 10%
Oc1cccc(C=Nc2ccccc2O)c1 ; species: Cryptococcus gattii ; strain or isolate: LMM 818 ; measure: MIC99 ; result: 5.7 µg/mL
CCO/N=C/c1ccc(OCCC2CCN(c3ccc(Cl)nn3)CC2)cc1 ; species: Rhinovirus ; strain or isolate: FO2-3607 (sialoprotein receptor group 87) ; cells: KB ; method: neutral red ; measure: EC50 ; result: 2.32 µM
CC(C)Oc1ccc(-n2c(C(=O)NCc3ccccc3)c3n(c2=O)CCN(C(=O)COc2ccccc2Cl)C3)cc1 ; species: Hepatitis B virus ; cells: HepG2.117 ; method: PCR ; measure: EC50 ; result: >5 µM
CN[C@H]1CC[C@@H](c2ccc(Cl)c(Cl)c2)c2ccccc21 ; species: Cryptococcus neoformans ; strain or isolate: 98BC1-86 ; method: broth dilution ; measure: MFC ; result: 8 µg/mL
Oc1ccccc1N=Cc1cccc(O)c1O ; species: Cryptococcus gattii ; strain or isolate: ATCC 24065 ; measure: MIC99 ; result: 4 µg/mL
Cc1nc2c(CNC(=O)c3c4n(c(=O)n3-c3ccc(OCC(F)(F)F)cc3)CCN(C(=O)c3ccc(Br)c(Cl)c3)C4)cccc2o1 ; species: Hepatitis B virus ; cells: HepG2.117 ; method: PCR ; measure: EC50 ; result: 0.1–0.5 µM
O=S(=O)([O-])c1ccc2c(S(=O)(=O)[O-])cc(S(=O)(=O)[O-])cc2c1 ; species: Herpes simplex virus ; cells: Human amnion AV3 cells ; method: cytopathic effect ; measure: inhibition ; tested at: 10 µg/mL ; result: 0%
Cc1nc(NCCCCNc2ccnc3cc(Cl)ccc23)nc(-c2ccccc2)c1C(=O)OC(C)C ; species: Cryptococcus gattii ; strain or isolate: 29/10893 ; measure: MIC99 ; result: 4 µg/mL

For reference, 2 entries again:

| structure | species | strain or isolate | cells | method | measure | tested at | result |
|---|---|---|---|---|---|---|---|
| O=C(NCc1ccc(Cl)cc1)c1c[nH]c2ccc(C#CCO)cc2c1=O | Varicella zoster virus | STE | - | plaque count | EC50 | - | 0.1 µM |
| CCOC(=O)c1c(C)nc(OCCCNc2ccnc3cc(Cl)ccc23)nc1-c1ccccc1 | Cryptococcus neoformans | F-10 | - | - | MIC99 | - | 4 µg/mL |

a–b is a range or a potency band. Blank or dashed fields: not listed here. A number after MIC or MFC names an inhibition level or a share of isolates. ECn is the concentration giving n% inhibition of infection, replication or growth. Inhibition is in % at the dose shown (toxicity tests: loss of growth or viability).